A mixed list of measured activities; the numbers were collected in NIAID ChemDB.

Shared fields: tests in culture

MIC50, MIC90 and the like: level of inhibition, or share of isolates inhibited.

smiles,species,strain,changes,method,setting,measure,result
CCCCNC(=O)Nc1ccc(S(=O)(=O)Nc2cc(C)on2)cc1,Mycobacterium kansasii,235/80,,broth dilution / absorbance,21 d,MIC100,250 µM
CC[C@@H](CO)NCCN[C@@H](CC)CO,Mycobacterium avium complex,9141,,,,MBC,60 µg/mL
CC[C@@H](C(=O)[C@@H](C)[C@@H](O)[C@H](C)[C@@H]1O[C@@H]([C@@H](CC)C(=O)O)CC[C@@H]1C)[C@H]1O[C@@]2(C=C[C@@H](O)[C@@]3(CC[C@@](C)([C@H]4CC[C@](O)(CC)[C@H](C)O4)O3)O2)[C@H](C)C[C@@H]1C,Mycobacterium aurum,,,resazurin,,MIC,0.04 µg/mL
C(=N\Nc1nncs1)/c1cn(CC2CCCCC2)c2ccccc12,Mycobacterium bovis BCG,1173P2,,broth dilution,48 h,MIC100,15.63 µg/mL
O=C(Nc1ccc(Cl)c(Cl)c1)c1cc(Cl)ccc1OP(=O)(OCc1ccccc1)OCc1ccccc1,Mycobacterium kansasii,My 6509/96,,,21 d,MIC,125 µM
NC[C@H]1O[C@H](O[C@H]2[C@H](O)[C@@H](O[C@H]3O[C@H](CO)[C@@H](O)[C@H](N)[C@H]3O)[C@H](N)C[C@@H]2N)[C@H](O)[C@@H](O)[C@@H]1O,Mycobacterium avium complex,Isolate C-18,,,,MIC,50 µg/mL
Cc1cc(NS(=O)(=O)c2ccc(NC(=O)N(C(C)C)C(C)C)cc2)no1,Mycobacterium kansasii,6509/96 clinical isolate,,broth dilution / absorbance,21 d,MIC100,500 µM
O=C(O)c1cn(C2CC2)c2c(F)c(N3CCNCC3)c(F)cc2c1=O,Mycobacterium smegmatis,KD2012 (GYRA G89A),,,,MIC99,0.42 µg/mL
CNc1ccc2oc(C[C@@H]3OC4(CC[C@@H]3C)O[C@H](C(C)C(=O)c3ccc[nH]3)[C@H](C)C[C@H]4C)nc2c1C(=O)O,Mycobacterium aurum,,C410 deletion,resazurin,,MIC,0.64 µg/mL
CCCCCCn1cc(/C=N/NC(=S)NN)c2ccccc21,Mycobacterium bovis BCG,1173P2,,broth dilution,24 h,MIC100,>500 µg/mL
CC1CN(c2cc3c(cc2F)c(=O)c(C(=O)O)cn3C2CC2)CCN1,Mycobacterium smegmatis,KD2008 (GYRA G89C),,,,MIC99,2.6 µg/mL
O=C1c2cc(Cl)ccc2OP(=O)(c2ccccc2)N1c1ccc(Cl)cc1,Mycobacterium kansasii,My 235/80,,,7 d,MIC,8 µM
CCCCCCCNC(=O)Nc1ccc(S(=O)(=O)Nc2cc(C)on2)cc1,Mycobacterium kansasii,235/80,,broth dilution / absorbance,21 d,MIC100,16 µM
O=C(Nc1ccccc1)c1ccccc1OP(=O)(OCc1ccccc1)OCc1ccccc1,Mycobacterium kansasii,My 6509/96,,,7 d,MIC,125 µM
NNC(=S)N/N=C/c1cn(S(=O)(=O)c2ccccc2)c2ccccc12,Mycobacterium bovis BCG,1173P2,,broth dilution,24 h,MIC100,>500 µg/mL
O=C(Nc1ccccc1)c1ccccc1OP(=O)(Oc1ccccc1)Oc1ccccc1,Mycobacterium kansasii,My 6509/96,,,21 d,MIC,250 µM
Cc1cc(NS(=O)(=O)c2ccc(NC(=O)C(=O)Nc3ccc(S(=O)(=O)Nc4cc(C)on4)cc3)cc2)no1,Mycobacterium kansasii,6509/96 clinical isolate,,broth dilution / absorbance,14 d,MIC100,8 µM
O=C(Nc1ccc(Cl)c(Cl)c1)c1cc(Cl)ccc1OP(=O)(Oc1ccccc1)Oc1ccccc1,Mycobacterium kansasii,My 6509/96,,,21 d,MIC,8 µM
COc1cc(Cc2cnc(N)nc2N)cc(OC)c1OCCCNc1ccc(S(=O)(=O)c2ccc(N)cc2)cc1,Mycobacterium ulcerans,ATCC 35840,,,,MIC,1 µg/mL
CN(C)[C@@H]1C(=O)C(C(N)=O)=C(O)[C@@]2(O)C(=O)C3=C(O)c4c(O)cccc4[C@@](C)(O)[C@H]3C[C@@H]12,Mycobacterium bolletii,,,broth dilution,,MIC,>128 µg/mL
COc1c(N2CCNCC2)c(F)cc2c(=O)c(C(=O)O)cn(C3CC3)c12,Mycobacterium smegmatis,KD2003 (GYRA D95G),,,,MIC99,0.83 µg/mL
O=C1c2ccccc2OP(=O)(c2ccccc2)N1c1ccccc1,Mycobacterium kansasii,My 6509/96,,,21 d,MIC,500 µM
Nc1ccc(S(=O)(=O)c2ccc(N)cc2)cc1,Mycobacterium ulcerans,Isolate 842,,,,MBC,2 µg/mL
CO[C@H]1/C=C/O[C@@]2(C)Oc3c(C)c(O)c4c(O)c(c5c(c4c3C2=O)NC2(CCN(CC(C)C)CC2)N=5)=NC(=O)/C(C)=C\C=C\[C@H](C)[C@H](O)[C@@H](C)[C@@H](O)[C@@H](C)[C@H](OC(C)=O)[C@@H]1C,Mycobacterium avium,3337-4,,,,MBC,>32 µg/mL
CCC1CN(c2c(F)cc3c(=O)c(C(=O)O)cn(C4CC4)c3c2OC)CCN1,Mycobacterium smegmatis,KD2012 (GYRA G89A),,,,MIC99,0.28 µg/mL
CC[C@H]1OC(=O)[C@H](C)[C@@H](O[C@H]2C[C@@](C)(OC)[C@@H](O)[C@H](C)O2)[C@H](C)[C@@H](O[C@@H]2O[C@H](C)C[C@H](N(C)C)[C@H]2O)[C@](C)(OC)C[C@@H](C)C(=O)[C@H](C)[C@@H](O)[C@]1(C)O,Mycobacterium massiliense,V30,,broth dilution,,MIC,0.125 µg/mL
NNC(=O)c1ccncc1,Mycobacterium kansasii,235/80,,broth dilution / absorbance,14 d,MIC100,>250 µM
O=C(Nc1ccc(C(F)(F)F)cc1)c1cc(Cl)ccc1OP(=O)(OCc1ccccc1)OCc1ccccc1,Mycobacterium kansasii,My 235/80,,,21 d,MIC,32 µM
CCN1CCN(c2c(F)cc3c(=O)c(C(=O)O)cn(C4CC4)c3c2OC)CC1,Mycobacterium smegmatis,KD1995 (GYRA D95H),,,,MIC99,0.76 µg/mL
Brc1ccc(Cn2cc(/C=N/Nc3nncs3)c3ccccc32)cc1,Mycobacterium bovis BCG,1173P2,,broth dilution,48 h,MIC100,3.91 µg/mL
CNC(=O)Nc1ccc(S(=O)(=O)Nc2cc(C)on2)cc1,Mycobacterium kansasii,235/80,,broth dilution / absorbance,21 d,MIC100,125 µM
CC1CN(c2c(F)cc3c(=O)c(C(=O)O)cn(C4CC4)c3c2Br)CCN1,Mycobacterium smegmatis,KD1163 (GRYA+),,,,MIC99,0.032 µg/mL

Repeating the first 3 entries:

smiles,species,strain,changes,method,setting,measure,result
CCCCNC(=O)Nc1ccc(S(=O)(=O)Nc2cc(C)on2)cc1,Mycobacterium kansasii,235/80,,broth dilution / absorbance,21 d,MIC100,250 µM
CC[C@@H](CO)NCCN[C@@H](CC)CO,Mycobacterium avium complex,9141,,,,MBC,60 µg/mL
CC[C@@H](C(=O)[C@@H](C)[C@@H](O)[C@H](C)[C@@H]1O[C@@H]([C@@H](CC)C(=O)O)CC[C@@H]1C)[C@H]1O[C@@]2(C=C[C@@H](O)[C@@]3(CC[C@@](C)([C@H]4CC[C@](O)(CC)[C@H](C)O4)O3)O2)[C@H](C)C[C@@H]1C,Mycobacterium aurum,,,resazurin,,MIC,0.04 µg/mL

An empty or dashed field is not shown. Rows are shuffled and stem from different studies.